Results of unrelated studies side by side (data: NIAID ChemDB).

All rows: whole-cell or culture tests; species: Human cytomegalovirus; endpoint: EC50

ECn is the concentration giving n% inhibition of infection, replication or growth. Conditions beyond the fields shown may differ between rows. An empty or dashed field is not shown.

smiles | strain | read by | cell line | value
CC(C)Nc1nc2cc(Cl)c(Cl)cc2n1[C@H]1O[C@@H](CO)[C@H](O)[C@@H]1O | C9213 | plaque count | MRC-5 | 0.4 µM
Nc1ncnc2c1ncn2C[C@H]1COP(=O)(O)CO1 | AD169 | flow cytometry | HEL | 1.78 µM
O=C(Nc1ccn([C@H]2C[C@](O)(CO)CO2)c(=O)n1)c1ccccc1 | AD169 |  | HFF | >100 µM
CCCCCCCCCCCCOCCCOP(=O)(O)CO[C@H](CO)Cn1ccc(N)nc1=O | C8914-6 | plaque count | HFF | 0.2 µM
Nc1ccn(C[C@@H](CO)OCP(=O)(O)O)c(=O)n1 | AD169 (ganciclovir foscarnet-susceptible) | plaque count | MRC-5 | 0.32 µM
CC(C)(CO)C(=O)Nc1ccc(NS(=O)(=O)c2cccc3c(N)cccc23)cc1 | DAVIS | cytopathic effect | Human embryonic lung fibroblasts | 0.71 µM
Nc1nc2c(ncn2COC(CO)CO)c(=O)[nH]1 | C8303 | plaque count | MRC-5 | 0.8 µM
CN(C)c1cccc2c(S(=O)(=O)Nc3ccc(NC(=O)C(C)(C)CO)cc3)cccc12 | AD169 | plaque count |  | 0.52 µM
CC(C)(C)[Si](OC[C@H]1C[C@@H](Cn2cnc3c(N)ncnc32)c2cn(Cc3ccccc3)nc21)(c1ccccc1)c1ccccc1 | DAVIS |  | HEL | 0.5 µM
O=C(NCc1ccc(Cl)cc1)c1c[nH]c2ccc(C#CCO)cc2c1=O | WAT | plaque count |  | 1.9 µM
CSCCn1ccc(=S)n(Cc2cc(C)cc(C)c2)c1=O | AD169 |  |  | >160 µM
Nc1ccn([C@@H]2C[C@](O)(CO)CO2)c(=O)n1 | AD169 |  | HFF | >100 µM
Nc1nc2c(ncn2[C@@H]2C[C@H](CO)[C@H]2CO)c(=O)[nH]1.O=C(O)P(=O)(O)O | PC92 (ganciclovir- foscarnet-susceptible) | plaque count | MRC-5 | 1.21 µM
CCCCCCCCCCCCCCCCOP(=O)(O)CO[C@H](CO)Cn1ccc(N)nc1=O | Coffman | plaque count | HFF | 0.01 µM
Nc1ccn(C[C@@H](CO)OCP(=O)(O)O)c(=O)n1.O=C(O)P(=O)(O)O | PAAR | plaque count | MRC-5 | 1.24 µM
O=C(Nc1ccn([C@@H]2CC(O)(CO)CO2)c(=O)n1)c1ccccc1 | AD169 |  | HFF | >100 µM
Cc1cc(C)cc(Cn2c(=O)ccn(Cc3ccoc3)c2=O)c1 | AD169 |  |  | 23 µM
COc1cccc(N2CCN(C3=Nc4c(F)cccc4[C@H](CC(=O)O)N3c3cc(C(F)(F)F)ccc3OC)CC2)c1 | Clinical isolate 2 | plaque count |  | 0.0015 µM
Nc1nc2c(ncn2COC(CO)CO)c(=O)[nH]1 | DAVIS | plaque count | HELF | 7.4 µM
Cc1cc(C)cc(Cn2c(=O)ccn(Cc3cccnc3)c2=O)c1 | AD169 |  |  | 31 µM
Nc1ccn(C[C@@H](CO)OCP(=O)(O)O)c(=O)n1 | VR4760 (foscarnet-resistant) | plaque count | HFF | 0.3 µM
CNc1cccc2c(S(=O)(=O)Nc3ccc(NC(=O)C(C)(C)C(=O)O)cc3)cccc12 | DAVIS | cytopathic effect | Human embryonic lung fibroblasts | 125 µM
O=C1NCc2ccccc2OCC/C=C/c2cncc3ccc1nc23 | C8704 (ganciclovir-resistant UL97 mutant) | plaque count | MRC-5 | 0.00024 µg/mL
Cc1ccc(Cn2c(=O)ccn(CC#N)c2=O)cc1 | AD169 |  |  | 78 µM
CCCCCCCCCCCCCCCCCCOC[C@H](COP(=O)(O)CO[C@H](CO)Cn1ccc(N)nc1=O)OCc1ccccc1 | TOWNE | plaque count | HFF | 0.003 µM
NC1=NCCN1CC(=O)O | C8704 (ganciclovir-resistant) | plaque count | MRC-5 | 10300 µM
Nc1nc2c(ncn2COC(CO)CO)c(=O)[nH]1 | VR3480 (ganciclovir-resistant) | plaque count |  | 22 µM
Nc1nc2c(ncn2/C=C2/CC2(CO)CO)c(=O)[nH]1 | RCdelta97 | plaque count | HFF | 25 µM
Cc1cc(C)cc(Cn2c(=O)cc(N3CCCCC3)n(CC#N)c2=O)c1 | AD169 |  |  | 99 µM
Nc1nc2c(ncn2[C@@H]2C[C@H](CO)[C@H]2CO)c(=O)[nH]1 | PAAR | plaque count | MRC-5 | 7.44 µM
Nc1ccn(C[C@@H](CO)OCP(=O)(O)O)c(=O)n1 | AD169 | plaque count | HEL | 0.25 µM
Cc1cc(C)cc(Cn2c(=O)ccn([C@H]3CCCO3)c2=O)c1 | AD169 |  |  | 330 µM
Nc1ccn(C[C@H]2COP(=O)(O)CO2)c(=O)n1 | AD169 | flow cytometry | HEL | 1.29 µM
O=c1ccn([C@H]2C[C@](O)(CO)CO2)c(=O)[nH]1 | AD169 |  | HFF | >100 µM
Cc1cc(C)cc(Cn2c(=O)ccn(Cc3ccc(C(C)(C)C)cc3)c2=O)c1 | AD169 |  |  | >130 µM

The first 2 rows once more:

smiles	strain	read by	cell line	value
CC(C)Nc1nc2cc(Cl)c(Cl)cc2n1[C@H]1O[C@@H](CO)[C@H](O)[C@@H]1O	C9213	plaque count	MRC-5	0.4 µM
Nc1ncnc2c1ncn2C[C@H]1COP(=O)(O)CO1	AD169	flow cytometry	HEL	1.78 µM